In patent publication US5837729A, “Methods for treating and preventing HIV infection using acetaminophen and derivatives thereof” (priority 1996, dated 1998):

Tested on: HIV
Experiment: HIV infection of MT-4 T lymphocytes, p24 ELISA of culture supernatant on day 2
Format: cell-based
Conditions: Table 1
Experimental: The % values on the right axis were positioned in a fashion that allows estimation of inhibitory effect of the test drug as a function of AGB concentration plotted on the horizontal axis.
The % values on the right axis were positioned in a fashion that allows estimation of the inhibitory effect of test drug as a function of EGB concentration plotted on the horizontal axis.
Indicator MT-4 T lymphocytes (10^5 cells/ml) were plated in triplicates in 96-well culture plates in the presence of serial 10-fold molar dilutions of test compound. Each culture well contained 180 μl of RPMI 1640 culture medium with 10% FBS, L-glutamine, penicillin and streptomycin. Immediately thereafter MT-4 lymphocytes were exposed to 20 μl of viral inoculum corresponding to 100 infectious units per lymphocyte as determined by limiting dilution assay. Two days later--the minimal time period corresponding to full replication cycle of HIV--the culture supernatants were collected and dose-response to drugs was quantitated by measuring the levels of cell-free p24 antigen. The amount of released virus was calculated by comparing the optical density of experimental values from treated wells to commercial p24 standards (Coulter, Hialeah, Fla.).
The serial ten-fold dilutions of AGB, virus, and cells were left without washing in the culture until tested for HIV production 2 days later. […]

Substance | SI, selectivity index, ratio between CC100 and IC100 values
gramicidin | 1,000
nonoxynol-9 | 1
